Results from ChEMBL document CHEMBL2040821, “Design, synthesis, and biological evaluation of 1-[(2-benzyloxyl/alkoxyl)methyl]-5-halo-6-aryluracils as potent HIV-1 non-nucleoside reverse transcriptase inhibitors with an improved drug resistance profile” (J Med Chem, 2012).

Molecular target: Human immunodeficiency virus type 1 reverse transcriptase (Human immunodeficiency virus 1) (UniProt Q72547)
Experiment: Ratio of nevirapine IC50 to compound IC50 for HIV1 reverse transcriptase

Cc1cc(C)cc(Cc2c(I)c(=O)[nH]c(=O)n2COCc2ccccc2)c1
Ratio IC50: 1370
